Experimental data from publication PMC3458967.
No signal at the amounts used counts as a negative. Tags and fusion partners may be left off the protein sequences shown. Construct, isoform or probe ends are uncertain for at least one entry.

What follows are sequences tested on T1, PerR (Fur-like protein, SSU05_0310) (Streptococcus suis serotype 2 strain SC-19) (assay: EMSA). Settings: 2-8 ug PerR, 0.1 ug DNA, poly dIdC, no metal added; 20 mM Tris-HCl pH 8.0, 50 mM KCl, 5% glycerol, 0.5 mM DTT, 25 ug/ml BSA, 100 ng poly dIdC, 20 ul, room temperature 15 min; 5% native PAGE; recombinant protein; residues 1-151; protein details: His tag (pET-28a); label: none (ethidium bromide stain); probe letters rebuilt from the primers and the genome.
T1 sequence (looked up): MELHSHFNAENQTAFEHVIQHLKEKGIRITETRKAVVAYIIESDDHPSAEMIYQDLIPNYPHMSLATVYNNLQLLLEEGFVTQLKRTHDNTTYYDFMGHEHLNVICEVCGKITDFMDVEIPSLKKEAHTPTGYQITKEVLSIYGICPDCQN

Row | Sequence | binding result
1 | AGCTAGTGTGAGTGCTACGGCACACTTACTGAAACGAAAATTCATAAGAATCCTCCATTTTCTTTTTGTAATAATCTTCTACAATCATTATACAGCTAAGAAATGCAAAATTCAAGACTAATTCTGAACGTTCGTTTGAAAAACGAGTGAAAATAACAAGAAAACGACAGAAAACACGAACGTTACAACCGACTCTGAACTTGGTTTGGATTGTTTGTAATTAGTAGTCTTATGTTAGATTCCTGTTTCGTTTTTCGTGAAAATGGTAGAATAGTAGGAAATATAAGAGGAAGAGTAGAGATATG (double strand) [relA promoter] | no binding
2 | TCCAGGACTGGTGGCGACAGGTTTGGATCCTAGAGATGGTACGATAGAAGCTTATGAAAGTAGAGGGAACCAAGCTTTGTTTGGTATCCAATGGCATCCAGAATTTTTATACAATGATTGTAAGCAACATCGAGACCTATTTCAGTATTTAGTAGATATATTTTAAGAGGGGTATCCCTCTTTTTATTATCAATACTTATAATTGCAAGGGTATTTGTTATAACGAAAAGTTATAACTTTCTATAAAAAAAGTCAATTAGTCAGAAAGAAAATTCTGTGTTAAGATAGATACAGTTAATTTAAGGAGATCATTTT (double strand) [metQIN promoter] | binds
3 | TTGAGGTCAATGAGGTAGCAGCGGATGCGGCTGTTCGGGAAGTCAAAGAAGAATTAGGGATTGACAGTCGTGTCAATCAATTAGTTTTTGTCGTTGAAAATCAGTTTACACATGAAGGTATAGATTTTCACAATATCGAGTTTCATTTTATCGTTGAGCCTATTGGAGAAATGCCTAAGGAGATGATTGAAGGGAAGTTGAAACAACCGTGTGAATGGATTGCACTTGACAACCTTGTCAACTTAGATGTCGTACCAGCTTTTCTGACACAGGAATTACCAAACTGGAGTGGACAAGTTAAACATATCATGAACATGAAGGAGAGAACAACATG (double strand) [gidA promoter (negative control)] | no binding
